Measured data: PubChem BioAssay AID1259414 (Drosophila RNAi Screening Center, 2018)

Test: 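Genome-wide screen for host control of endosymbiont load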 (primary screen)
Cell system: Drosophila JW18 cells infected with Wolbachia
Reagents: long dsRNA against Drosophila genes, 0.25 µg dsRNA per well of a 384-well plate
Timing: 5 days
Conditions: cells persistently infected with Wolbachia before knock-down; no added drug
Measured: 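Automated imaging of bacterial rRNA staining divided by host cell count, reported as plate-normalised robust z-score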
Scale: Wolbachia per cell robust z: higher = more Wolbachia per host cell than the plate typical
Hit rule: 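Active if absolute robust z reaches 1.5 in two or more of three replicates, leaving out multi- or no-target dsRNAs, genes unexpressed in JW18 and A1 wells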
In all, the deposit lists about 24,000 reagents; shown is an unselected part of those with a known target gene and a result. Of all reagents, about 1,210 (5%) were called active. 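Inactive calls also include excluded dsRNAs with several or no targets, genes unexpressed in JW18, and well A1, regardless of score.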

Against RpL18 [DRSC11016], the values are Wolbachia per cell robust z, rep 1 = 0.172; Wolbachia per cell robust z, rep 2 = 1.36; Wolbachia per cell robust z, rep 3 = -0.287; inactive. After knock-down of RpL18 [DRSC22323] the results were Wolbachia per cell robust z, rep 1 = 0.888; Wolbachia per cell robust z, rep 2 = 1.16; Wolbachia per cell robust z, rep 3 = 1.69; inactive. RpL10Ab [DRSC10798] showed Wolbachia per cell robust z, rep 1 = 1.85; Wolbachia per cell robust z, rep 2 = 2.86; Wolbachia per cell robust z, rep 3 = 2.7; active. Silencing of RpL10Ab [DRSC26988] gave: Wolbachia per cell robust z, rep 1 = 1.77; Wolbachia per cell robust z, rep 2 = 3.18; Wolbachia per cell robust z, rep 3 = 4.77; active. Agpat4 [DRSC10446] showed Wolbachia per cell robust z, rep 1 = -0.0927; Wolbachia per cell robust z, rep 2 = 0.408; Wolbachia per cell robust z, rep 3 = 0.944; inactive. Against Agpat4 [DRSC26102], the values are Wolbachia per cell robust z, rep 1 = -8.41; Wolbachia per cell robust z, rep 2 = -0.118; Wolbachia per cell robust z, rep 3 = -0.128; inactive.

After knock-down of Cpr72Eb [DRSC09870], the record shows Wolbachia per cell robust z, rep 1 = -0.754; Wolbachia per cell robust z, rep 2 = 0.413; Wolbachia per cell robust z, rep 3 = -7.52; inactive. Muc18B [DRSC21644] gave Wolbachia per cell robust z, rep 1 = 0.781; Wolbachia per cell robust z, rep 2 = 0.807; Wolbachia per cell robust z, rep 3 = 0.614; inactive. Muc18B [DRSC28889] gave Wolbachia per cell robust z, rep 1 = 0.0593; Wolbachia per cell robust z, rep 2 = 0.318; Wolbachia per cell robust z, rep 3 = -0.624; inactive. Tcs3 [DRSC10461] gave Wolbachia per cell robust z, rep 1 = 1.39; Wolbachia per cell robust z, rep 2 = 0.957; Wolbachia per cell robust z, rep 3 = 0.241; inactive. For Tcs3 [DRSC29969], the entry reads Wolbachia per cell robust z, rep 1 = 0.104; Wolbachia per cell robust z, rep 2 = 0.41; Wolbachia per cell robust z, rep 3 = -0.0842; inactive. After knock-down of CG31675 [DRSC01825] the results were Wolbachia per cell robust z, rep 1 = -0.341; Wolbachia per cell robust z, rep 2 = 0.566; Wolbachia per cell robust z, rep 3 = 0.748; inactive.

CG31675 [DRSC26340] showed Wolbachia per cell robust z, rep 1 = 1.22; Wolbachia per cell robust z, rep 2 = 0.68; Wolbachia per cell robust z, rep 3 = -0.234; inactive. After knock-down of CG17298 [DRSC15221] the results were Wolbachia per cell robust z, rep 1 = 0.445; Wolbachia per cell robust z, rep 2 = 1.53; Wolbachia per cell robust z, rep 3 = 1.32; inactive. Against CG17298 [DRSC27897], the values are Wolbachia per cell robust z, rep 1 = -3.67; Wolbachia per cell robust z, rep 2 = -0.0339; Wolbachia per cell robust z, rep 3 = 0.87; inactive. Knock-down of CG11200 [DRSC06060] came out at: Wolbachia per cell robust z, rep 1 = -0.257; Wolbachia per cell robust z, rep 2 = 0.435; Wolbachia per cell robust z, rep 3 = 0.0953; inactive. Knock-down of CG11200 [DRSC27196] resulted in: Wolbachia per cell robust z, rep 1 = 0.85; Wolbachia per cell robust z, rep 2 = 0.738; Wolbachia per cell robust z, rep 3 = 0.196; inactive.

A few values from the entries so far.
RpL18 [DRSC22323], Call → inactive
CG11200 [DRSC06060], Call → inactive
Agpat4 [DRSC26102], Wolbachia per cell robust z, rep 2 → -0.118
